Pooled drug test results. Numbers come from NIAID ChemDB, via PubChem.

All rows: tests in culture; organism: Influenza B virus; endpoint: EC50

ECn is the concentration giving n% inhibition of infection, replication or growth. Two numbers with a dash give a range or band. Conditions beyond the fields shown may differ between rows.

C[C@H](CO)[C@@H](OC(=O)NCCO[C@@H]1O[C@@H](CO)[C@H](O)[C@@H](O)[C@H]1O)[C@@H]1OC(C(=O)O)=C[C@H](N=C(N)N)[C@H]1NC(=O)O ; cell line: MDCK ; strain or isolate: Victoria ; read by: plaque count ; result: 0.88 µg/mL
C[C@@]1(O)CC2CCCC1C2N ; cell line: MDCK ; read by: plaque count ; result: >100 µM
CCOc1ncn(-c2ccc(NC(=S)Nc3cccc(O)c3)cc2)n1 ; cell line: MDCK ; strain or isolate: Singapore ; read by: cytopathic effect ; result: >200 µg/mL
CC(C)[C@H]1CCC2C(N)C1[C@@H](C)[C@H]2C ; cell line: MDCK ; read by: plaque count ; result: 61.6 µM
CC(=O)N[C@@H]1[C@@H](N)C=C(C(=O)O)O[C@H]1C(=O)N(CCN=[N+]=[N-])CCc1ccccc1 ; read by: plaque count ; result: 23 µg/mL
CC1(CO)CCC(Cn2cnc3c(=O)[nH]cnc32)C1(C)C ; cell line: MDCK ; strain or isolate: HONG KONG/5/72 ; read by: cytopathic effect ; result: >250 µg/mL
CC=NC(=N)c1nc(-c2ccc(OC)cc2)n(COCCO)n1 ; cell line: MDCK ; strain or isolate: Singapore ; read by: cytopathic effect ; result: >200 µg/mL
Nc1ccn([C@@H]2C[C@H](CO)[C@@H](O)[C@H]2O)c(=O)n1 ; cell line: MDCK ; read by: cytopathic effect ; result: 4.5 µg/mL
CC1=C(C)C2C(N)C1[C@H](C(C)C)C[C@@H]2C ; cell line: MDCK ; read by: plaque count ; result: 37 µM
CCOc1ncn(-c2ccc(NC(=S)Nc3ncccn3)cc2)n1 ; cell line: MDCK ; strain or isolate: Singapore ; read by: cytopathic effect ; result: >8 µg/mL
CC1=C(C)C2(C)CC(C)(C)CC1C2N ; cell line: MDCK ; read by: plaque count ; result: 36 µM
CCC(CC)O[C@@H]1C=C(C(=O)O)C[C@H](N)[C@H]1NC(C)=O ; cell line: MDCK ; strain or isolate: B/Beijing/184/93 ; result: 0.11 µM
CCCOc1ncn(-c2ccc(NC(=S)Nc3cccc(O)c3)cc2)n1 ; cell line: MDCK ; strain or isolate: Singapore ; read by: cytopathic effect ; result: >100 µg/mL
CC=NC(=N)c1nc(-c2cccc(OC)c2)n(Cc2ccccc2)n1 ; cell line: MDCK ; strain or isolate: Singapore ; read by: cytopathic effect ; result: >100 µg/mL
CCCN(CCc1cccc(-c2ccccc2)c1)C(=O)[C@@H]1OC(C(=O)O)=C[C@H](N)[C@H]1NC(C)=O ; read by: plaque count ; result: 0.3 µg/mL
CCCN(CCC)C(=O)O[C@@H]([C@@H]1OC(C(=O)O)=C[C@H](N)[C@H]1NC(=O)O)[C@H](C)CO ; cell line: MDCK ; strain or isolate: Victoria ; read by: plaque count ; result: 0.52 µg/mL
N#Cc1cc(NC(=O)c2ccccc2)c(=O)n2c1[nH]c1ccccc12 ; cell line: MDCK ; strain or isolate: B/Singapore ; read by: plaque count ; result: 1.8 µg/mL
CC1(CO)CCC(Cn2nnc3c(N)ncnc32)C1(C)C ; cell line: MDCK ; strain or isolate: HONG KONG/5/72 ; read by: cytopathic effect ; result: >50 µg/mL
C=C(N=CC)c1nc(-c2ccccc2)n(C2O[C@H](CO)[C@@H](O)[C@H](O)[C@H]2O)n1 ; cell line: MDCK ; strain or isolate: Singapore ; read by: cytopathic effect ; result: >200 µg/mL
CCON=C[C@H]1O[C@@H](n2cnc3c(N)ncnc32)[C@H](O)[C@@H]1O ; cell line: MDCK ; strain or isolate: Singapore ; read by: cytopathic effect ; result: 1.2 µg/mL
CC(C)CS[C@@H]1C[C@H](n2cnc3c(N)ncnc32)[C@@H](O)[C@H]1O ; cell line: MDCK ; read by: cytopathic effect ; result: 37 µg/mL
CCCCCCCNC(=O)O[C@@H]([C@@H]1OC(C(=O)O)=C[C@H](N=C(N)N)[C@H]1NC(=O)O)[C@H](C)CO ; cell line: MDCK ; strain or isolate: Victoria ; read by: plaque count ; result: 0.023 µg/mL
CCC(CC)O[C@@H]1C=C(C(=O)O)C[C@H](N)[C@H]1NC(C)=O ; cell line: MDCK ; strain or isolate: B/HONG KONG/5/72 ; read by: plaque count ; result: 0.155 µM
C=C[C@@H](O)C1=C[C@@H](n2cnc3c(N)ncnc32)[C@H](O)[C@@H]1O ; cell line: MDCK ; strain or isolate: HONG KONG ; read by: cytopathic effect ; result: >50 µg/mL
N#Cc1cc(C#N)c2[nH]c3ccccc3n2c1=O ; cell line: MDCK ; strain or isolate: B/Singapore ; read by: plaque count ; result: 80 µg/mL
C=C[C@H](O)C1=C[C@@H](n2cnc3c(N)ncnc32)[C@H](O)[C@@H]1O ; cell line: MDCK ; strain or isolate: HONG KONG ; read by: cytopathic effect ; result: >250 µg/mL
C=C(N=CC)c1nc(-c2ccc(C)cc2)n([C@@H]2O[C@H](CO)[C@@H](O)[C@H]2O)n1 ; cell line: MDCK ; strain or isolate: Singapore ; read by: cytopathic effect ; result: >200 µg/mL
C[C@H](CO)[C@@H](OC(N)=O)[C@@H]1OC(C(=O)O)=C[C@H](N)[C@H]1NC(=O)O ; cell line: MDCK ; strain or isolate: Victoria ; read by: plaque count ; result: 0.02 µg/mL
CCCOc1ncn(-c2ccc(NC(=S)NC34CC5CC(CC(C5)C3)C4)cc2)n1 ; cell line: MDCK ; strain or isolate: Singapore ; read by: cytopathic effect ; result: >100 µg/mL
N#CNc1nncs1 ; cell line: MDCK ; strain or isolate: B/Singapore/3/64 ; read by: plaque count ; result: 1.37 µg/mL
CC1(CO)CCC(Cn2nnc3c(Cl)nc(N)nc32)C1(C)C ; cell line: MDCK ; strain or isolate: HONG KONG/5/72 ; read by: cytopathic effect ; result: >50 µg/mL
C/C=C\[C@@H]1C[C@H](C(=O)O)N[C@H]1[C@@H](NC(C)=O)[C@](C)(CCC)OC ; cell line: MDCK ; strain or isolate: Isolate C17C ; read by: plaque count ; result: <0.01 µg/mL
CC1(CO)CCC(Cn2nnc3c(N)nc(N)nc32)C1(C)C ; cell line: MDCK ; strain or isolate: HONG KONG/5/72 ; read by: cytopathic effect ; result: >50 µg/mL
CCCOc1ccccc1CNC(=O)c1ccc2cnccc2n1 ; read by: plaque count ; result: 3.2 µg/mL
CC=NC(=N)c1nc(-c2cccc(OC)c2)n(COCCO)n1 ; cell line: MDCK ; strain or isolate: Singapore ; read by: cytopathic effect ; result: >200 µg/mL
CCCN(CCc1ccc(O)cc1)C(=O)[C@@H]1OC(C(=O)O)=C[C@H](N)[C@H]1NC(C)=O ; read by: plaque count ; result: 2 µg/mL
CCC(CC)[C@H](NC(C)=O)[C@@H]1[C@H](O)[C@@H](C(=O)O)C[C@H]1N=C(N)N ; cell line: MDCK ; strain or isolate: LEE/40 ; result: 3.2 µM
C[C@H](CO)[C@@H](OC(=O)NCCSc1ncccn1)[C@@H]1OC(C(=O)O)=C[C@H](N=C(N)N)[C@H]1NC(=O)O ; cell line: MDCK ; strain or isolate: Victoria ; read by: plaque count ; result: 0.027 µg/mL
Nc1nc(Cl)cc(NCC2(CO)CC(CCc3ccccc3)C2)n1 ; cell line: MDCK ; strain or isolate: B/GIFU/2/73 ; read by: plaque count ; result: 0.35–0.63 µM
C[C@@H]1C2CCCC(C2NCc2ccccc2)[C@@H]1C ; cell line: MDCK ; read by: plaque count ; result: >50 µM
CC1(CO)CCC(Cn2cnc3c(N)nc(N)nc32)C1(C)C ; cell line: MDCK ; strain or isolate: HONG KONG/5/72 ; read by: cytopathic effect ; result: >50 µg/mL
Nc1ncnc2c1ncn2[C@@H]1O[C@H](C=NOCc2ccccc2)[C@@H](O)[C@H]1O ; cell line: MDCK ; strain or isolate: Singapore ; read by: cytopathic effect ; result: 20 µg/mL
O=C(NCCc1ccccc1)C1=Cc2ccncc2CC1 ; cell line: MDCK ; read by: cytopathic effect ; result: >344 µM
CC1(CO)CCC(Cn2nnc3c(Cl)ncnc32)C1(C)C ; cell line: MDCK ; strain or isolate: HONG KONG/5/72 ; read by: cytopathic effect ; result: 10 µg/mL
CC1=C(C)C2C(N)C1CCC2(C)C ; cell line: MDCK ; read by: plaque count ; result: ~30 µM
CC(C)C1CC(CO)(CNc2cc(Cl)nc(N)n2)C1 ; cell line: MDCK ; strain or isolate: B/GIFU/2/73 ; read by: plaque count ; result: 2.1–2.5 µM
CC(C)Oc1ccccc1CNC(=O)c1ccc2cnccc2n1 ; cell line: MDCK ; read by: cytopathic effect ; result: 10 µM
C[C@H](CO)[C@@H](OC(N)=O)[C@@H]1OC(C(=O)O)=C[C@H](N=C(N)N)[C@H]1NC(=O)O ; cell line: MDCK ; strain or isolate: Victoria ; read by: plaque count ; result: 0.002 µg/mL
CCCN(CCc1ccc(Cl)cc1Cl)C(=O)[C@@H]1OC(C(=O)O)=C[C@H](N)[C@H]1NC(C)=O ; read by: plaque count ; result: 3.2 µg/mL
Nc1nc(Cl)cc(NCC2(CO)CC2)n1 ; cell line: MDCK ; strain or isolate: B/GIFU/2/73 ; read by: plaque count ; result: >440 µM
Nc1nc2c(ncn2[C@@H]2O[C@H](CO)[C@@H](O)[C@H]2F)c(=O)[nH]1 ; cell line: CEF ; strain or isolate: B/HONG KONG/73 ; read by: plaque count ; result: 1 µM
CCCC(CCC)C(NC(C)=O)C1C(N=C(N)N)CC(C(=O)O)C1O ; cell line: MDCK ; strain or isolate: HONG KONG/5/72 ; result: 2 µM
CC=NC(=N)c1nc(-c2ccc(C)cc2)n(COCCO)n1 ; cell line: MDCK ; strain or isolate: Singapore ; read by: cytopathic effect ; result: >100 µg/mL
CCCOc1ncn(-c2ccc(NC(=S)Nc3cnccn3)cc2)n1 ; cell line: MDCK ; strain or isolate: Singapore ; read by: cytopathic effect ; result: >100 µg/mL
Nc1ncc(N)c(NCC2(CO)CC(Cc3ccccc3)C2)n1 ; cell line: MDCK ; strain or isolate: B/GIFU/2/73 ; read by: plaque count ; result: 3.2–25 µM
CC[C@@H](O)C1=C[C@@H](n2cnc3c(N)ncnc32)[C@H](O)[C@@H]1O ; cell line: MDCK ; strain or isolate: HONG KONG ; read by: cytopathic effect ; result: >250 µg/mL

The last 4 rows once more:

structure | cell line | strain or isolate | read by | result
CC=NC(=N)c1nc(-c2ccc(C)cc2)n(COCCO)n1 | MDCK | Singapore | cytopathic effect | >100 µg/mL
CCCOc1ncn(-c2ccc(NC(=S)Nc3cnccn3)cc2)n1 | MDCK | Singapore | cytopathic effect | >100 µg/mL
Nc1ncc(N)c(NCC2(CO)CC(Cc3ccccc3)C2)n1 | MDCK | B/GIFU/2/73 | plaque count | 3.2–25 µM
CC[C@@H](O)C1=C[C@@H](n2cnc3c(N)ncnc32)[C@H](O)[C@@H]1O | MDCK | HONG KONG | cytopathic effect | >250 µg/mL